Consider 1 compound from patent US20200345021A1, “METHOD AND SYSTEM FOR ENHANCING THE EFFICACY USING IONIZED/A[…] PEROXIDE IN REDUCING MICROBIAL POPULATIONS, METHOD OF USE THEREOF” (priority 2019, published 2020).

The data set has as its system tomato, spinach and cantaloupe. Conditions: 1 day after treatment, stored at 10° C.

Read-outs that look alike come from different tables or passages of the source.

Turning to `OO` [H2O2, hydrogen peroxide], the Firmness runs as follows: (cantaloupe) 6.51 +/− 0.48a kg; (cantaloupe, listed as ionized/aerosolized hydrogen peroxide (H2O2)) “no significant differences”; (spinach) 9.87 +/− 1.94a kg; (spinach, listed as ionized/aerosolized hydrogen peroxide (H2O2)) “no significant differences”; (tomato) 1.17 +/− 0.13a^ kg; (tomato, listed as ionized/aerosolized hydrogen peroxide (H2O2)) “no significant differences”.
